Values quoted from earlier work in US12372525B2 (priority 2013, dated 2025).

Tested on: neuraminidase
Conditions: cited from earlier work

CC(=O)N[C@H]1[C@H]([C@H](O)[C@H](O)CO)OC(C(=O)O)=C[C@@H]1N=C(N)N [Zanamivir]
affinity compared with DANA: Zanamivir, inhaled, based on DANA -Higher affinity than DANA
